PubChem BioAssay AID504761, Drosophila RNAi Screening Center | 2011

Assay: 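Fly genes whose silencing reduces dengue virus type 2 infection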 (primary screen)
System: D.Mel-2 cells from Drosophila
Knock-down reagent: long dsRNA against Drosophila genes
Conditions: infection with dengue virus type 2; dose and infection time not stated
Detection: 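Per well on two replicate plates, imaging gave the percent of cells positive for viral envelope protein, ranked by infection, and a nuclear count of cells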
Scale: infection score: higher = more virus-infected cells; cell count: higher = more cells in the well
Rule for the call: 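Low infection ranks in the two replicates (chance level up to 0.065) followed by a retest with a 1.5-fold or larger significant decrease, p below 0.05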
Meaning of the calls: active = confirmed: knock-down lowers infection; inactive = not picked or not confirmed
In all, the deposit lists about 22,000 reagents; this is an unselected part of those with a known target gene and a result. Over the whole deposit, 116 (0.52%) are marked active. 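Calls depend on retest data that are not deposited; infection was ranked per plate without normalising between plates; the unit of the infection score is not given.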 Raw values vary from plate to plate and are shown uncorrected. Unmarked entries are inactive. Not all columns of the deposit are shown. The record does not give: the amount of reagent, the time to read-out.

qkr58E-2 (quaking related 58E-2) [DRSC04710] showed cell count, replicate 1 = 370.
Against qkr58E-2 (quaking related 58E-2) [DRSC25296], the entry reads infection score, replicate 1 = 14.9; cell count, replicate 1 = 5130.
Against CG3552 [DRSC10370], the entry reads infection score, replicate 1 = 0.47; cell count, replicate 1 = 6114.
CG6424 [DRSC05936] showed infection score, replicate 1 = 6.38; cell count, replicate 1 = 6775.
With knock-down of CG6424 [DRSC28768], the record shows infection score, replicate 1 = 9.36; cell count, replicate 1 = 1186.

Just “infection score, replicate 1”, for 2 of the entries above:
qkr58E-2 (quaking related 58E-2) [DRSC25296]: 14.9
CG3552 [DRSC10370]: 0.47

Additional entries follow.
bark (bark beetle) [DRSC00635] showed infection score, replicate 1 = 2.85; cell count, replicate 1 = 6663.
bark (bark beetle) [DRSC27011] gave infection score, replicate 1 = 6.47; cell count, replicate 1 = 6703.
With knock-down of Tsf3 (Transferrin 3) [DRSC06849], the record shows infection score, replicate 1 = 9.19; cell count, replicate 1 = 6483.
With knock-down of eIF4E1 (eukaryotic translation initiation factor 4E1) [DRSC11342] the results were infection score, replicate 1 = 12.2; cell count, replicate 1 = 4343.
eIF4E1 (eukaryotic translation initiation factor 4E1) [DRSC23583] scored infection score, replicate 1 = 9.86; cell count, replicate 1 = 4878.
Depletion of Cp15 (Chorion protein 15) [DRSC11118] resulted in: infection score, replicate 1 = 1.65; cell count, replicate 1 = 6590.
Against Cp15 (Chorion protein 15) [DRSC28629], the entry reads infection score, replicate 1 = 17.2; cell count, replicate 1 = 6258.
